Results: patent US6858588B2, “Nitrile glycoside useful as a bioenhancer of drugs and nutrients, process of its isolation from moringa oleifera” (Council of Scientific and Industrial Research, priority 2003, dated 2005)

System: C. albicans
Assay: Enhancement of anticandidial activity of clotrimazole, broth assay
Details: in combination; observed only at relatively higher concentration (10 ug/ml) of the compound

CC1OC(Oc2ccc(CC#N)cc2O)C(O)C(O)C1O (stereo not shown) [Niaziridin, NIAZIRIDIN]
Enhancement of antifungal activity of clotrimazole: 5-6 folds
